Measured values taken from patent publication US20240218073A1, “IMMUNOMODULATORY ANTI-CD73 ANTIBODIES AND USES THEREOF” (Corvus Pharmaceuticals, Inc., priority 2019, published 2024).

Assays:
[1] = tested on: SARS-CoV-2 peptides; experiment: COVID-19 patients: antigen specific T cell Peptivator assay; type: in vivo, human; details: one patient, 0.3 mg/kg
[2] = Phase 1 trial in cancer patients: serum immunoglobulins; type: in vivo, human; details: cancer patients (n=10), 21 days post treatment compared to baseline
Source text: Blood was collected from patients treated with CPI-006 for immunoglobulins analysis at pre-treatment or prior to dose administration at the beginning of Cycle 4 (9 weeks), Cycle 7 (18 weeks) and Cycle 10 (27 weeks).
CPI-006 is being evaluated as an immunotherapy for cancer in an ongoing phase 1 study (NCT03454451). The cancers being evaluated in the study include non-small cell lung cancer, renal cell cancer, colorectal cancer, triple negative breast cancer, cervical cancer, ovarian cancer, pancreatic cancer, endometrial cancer, sarcoma, squamous cell carcinoma of the head and neck, bladder cancer, metastatic castration resistant prostate cancer, and non-Hodgkin lymphoma. […] Memory B cells are essential for both acute and long-term immunity as they have undergone immunoglobulin rearrangement and somatic hypermutation in order to produce high affinity, antigen-specific antibody upon exposure to antigen. […] These new B cell clones were limited to 2-40 clones per patient and appeared with frequencies as high as 1:100 B cells, consistent with a robust clonal expansion following an antigen-specific response (FIG. 15I-15K). The cognate antigens recognized by these new B cell clones are currently under characterization.

[3] = tested on: memory B cells and memory/effector T cells; experiment: COVID-19 patients: immunophenotyping of PBMCs; type: in vivo, human; details: baseline vs 14 or 28 days after treatment
[4] = tested on: recombinant RBD binding to human ACE2; experiment: COVID-19 patients: RBD-ACE2 blocking assay of serum; type: in vivo; details: 0.3 or 1.0 mg/kg
[5] = tested on: SARS-CoV-2 TS and/or RBD; experiment: COVID-19 patients: anti-SARS-CoV-2 antibody ELISA; type: in vivo, human
[6] = tested on: SARS-CoV-2

Substance: CPI-006: humanized anti-CD73 IgG1k antibody with 1E9 CDRs (SEQ ID NO:1-6) and N297Q mutation eliminating Fc effector functions
- Th1 cytokine production of PBMCs stimulated with SARS-CoV-2 M, N or S peptides [1]: produced Th1 cytokines such as IFNg and IL-2
- antigen-specific IgG response against mumps, CMV, rubella, measles, HSV1 [2]: unaltered antigen-specific IgG response
- evaluated patients with increased frequency of memory B cells ([3]; 0.3 mg/kg): two of two
- evaluated patients with increased frequency of memory/effector CD4^POS and CD8^POS T cells [3]: three out of three
- neutralizing antibody levels (block of recombinant RBD binding to human ACE2) [4]: corresponding increase in neutralizing antibody levels
- IgG and IgM titers ([5]; […], extending 28 days after administration): > 100,000
- antibody levels compared to convalescent sera ([5]; convalescent sera collected at 4-6 weeks POS): reached higher titers compared to convalescent sera
- course of IgG and IgM levels to viral TS or RBD and neutralization antibodies ([5]; out to 28 days post treatment): Continually increasing
- evaluable patients with rapidly increased IgG and IgM antibody titers against SARS-CoV-2 TS and/or RBD ([5]; within 7 days of a single infusion, 0.3 or 1.0 mg/kg): 8/8
- median time to discharge after hospitalization ([6]; COVID-19 patients, 0.3 and 1.0 mg/kg cohorts): 4 days
- infusion related reactions and treatment related adverse events ([6]; COVID-19 patients, single iv dose 0.3 or 1.0 mg/kg): No infusion related reactions or other treatment related adverse events have been observed
- clinical recovery ([6]; COVID-19 patients, single iv dose 0.3 or 1.0 mg/kg, standard care allowed): All patients recovered with improvement of inflammatory markers and symptoms
- Day Discharged ([6]; individual COVID-19 patient, CPI-006 dose 0.3 mg/kg, 0.3 mg/kg): 4 (3×) and 5 and 6

Where “and” joins values, the source holds several entries; their conditions need not be identical. Equal values may be shown once.
